Results of unrelated studies side by side (data: NIAID ChemDB).

Common to all: tests in culture; species: Enterococcus faecium

An empty or dashed field is not shown.

SMILES	strain or isolate	endpoint	result
CC(=O)NC[C@H]1CN(c2ccc(NS(C)(=O)=O)c(F)c2)C(=O)O1	UC12712 (vancomycin-resistant)	MIC	16 µg/mL
CC(=O)NC[C@H]1CN(c2ccc(C(=O)Nc3nncs3)c(F)c2)C(=O)O1	UC12712 (vancomycin-resistant)	MIC	4 µg/mL
CC(=O)NC[C@H]1CN(c2ccc(NC(=O)c3ccc([N+](=O)[O-])o3)c(F)c2)C(=O)O1	UC12712 (vancomycin-resistant)	MIC	0.5 µg/mL
CC(=O)NC[C@H]1CN(c2ccc(C(=O)Nc3ncn[nH]3)c(F)c2)C(=O)O1	UC12712 (vancomycin-resistant)	MIC	16 µg/mL
O=C(/C=C/c1ccc([N+](=O)[O-])cc1)NC[C@H]1CN(c2ccc(N3CCOCC3)c(F)c2)C(=O)O1	UC12712 (vancomycin-resistant)	MIC	8 µg/mL
CC(=O)NC[C@H]1CN(c2ccc(C(=O)Nc3ccccn3)c(F)c2)C(=O)O1	UC12712 (vancomycin-resistant)	MIC	8 µg/mL
CN(C)c1cc(CNC2CCCCC2)c(O)c2c1C[C@H]1C[C@H]3[C@H](N(C)C)C(=O)C(C(N)=O)=C(O)[C@@]3(O)C(=O)C1=C2O	494 (vancomycin-resistant)	MIC	0.5 µg/mL
CC(=O)NC[C@H]1CN(c2ccc(N(C)C=O)c(F)c2)C(=O)O1	UC12712 (vancomycin-resistant)	MIC	4 µg/mL
CNc1c(F)cc2c(=O)c(C(=O)O)cn(-c3cc(N)c(F)cc3F)c2c1C	ATCC51519	MIC	4 µg/mL
CC(=O)NC[C@H]1CN(c2ccc(OC3CCN(C(=O)COCc4ccccc4)CC3)nc2)C(=O)O1	OC3312 vancomycin-resistant	MIC	128 µg/mL
Cc1c(NC(C)C)c(F)cc2c(=O)c(C(=O)O)cn(-c3cc(N)c(F)cc3F)c12	ATCC51519	MIC	16 µg/mL
CC(=O)NC[C@H]1CN(c2ccc(NC(=O)c3ccc(/C=C/[N+](=O)[O-])o3)c(F)c2)C(=O)O1	UC12712 (vancomycin-resistant)	MIC	16 µg/mL
O=C(CCOc1ccc(Cl)cc1Cl)NC[C@H]1CN(c2ccc(N3CCOCC3)c(F)c2)C(=O)O1	UC12712 (vancomycin-resistant)	MIC	8 µg/mL
O=C(CCC(=O)Nc1cc(C(F)(F)F)cc(C(F)(F)F)c1)Nc1cc(C(F)(F)F)cc(C(F)(F)F)c1	EF12 (vancomycin-resistant)	MIC	>300 µM
Cc1ccc(-c2ccc(O)c3c2C[C@H]2C[C@H]4[C@H](N(C)C)C(=O)C(C(N)=O)=C(O)[C@@]4(O)C(=O)C2=C3O)cc1N	494 (vancomycin-resistant)	MIC	2 µg/mL
O=C(NCCO)NNC(=O)Nc1cc(C(F)(F)F)cc(C(F)(F)F)c1	EF12 (vancomycin-resistant)	MIC	>300 µM
Cc1c(N)c(F)cc2c(=O)c(C(=O)O)cn(-c3cc(N)c(F)cc3F)c12	ATCC51519	MIC	8 µg/mL
CC1COc2c(N3CCN(C)CC3)c(F)cc3c(=O)c(C(=O)O)cn1c23	-	MIC90	4–100 µg/mL
CC(=O)NC[C@H]1CN(c2ccc(C(=O)NO)c(F)c2)C(=O)O1	UC12712 (vancomycin-resistant)	MIC	16 µg/mL
CC(=O)NC[C@H]1CN(c2ccc(SCSC#N)c(F)c2)C(=O)O1	UC12712 (vancomycin-resistant)	MIC	8 µg/mL
CC(=O)NC[C@H]1CN(c2ccc(N(C)S(C)(=O)=O)c(F)c2)C(=O)O1	UC12712 (vancomycin-resistant)	MIC	8 µg/mL
CC(=O)NC[C@H]1CN(c2ccc(SC3(C)CCOC3=O)c(F)c2)C(=O)O1	UC12712 (vancomycin-resistant)	MIC	4 µg/mL
COCC(=O)N1CCC(Oc2ccc(N3C[C@H](CNC(C)=O)OC3=O)cn2)CC1	OC3312 vancomycin-resistant	MIC	>64 µg/mL
CC(=O)NC[C@H]1CN(c2ccc3c(c2)OCc2nccn2-3)C(=O)O1	27253	MIC	0.5 µg/mL
O=C(Nc1cccc(C2=NCCN2)c1)Nc1cccc(C(F)(F)F)c1	EF12 (vancomycin-resistant)	MIC	>300 µM
CC(=O)NC[C@H]1CN(c2ccc(SCCC#N)c(F)c2)C(=O)O1	UC12712 (vancomycin-resistant)	MIC	8 µg/mL
CN(C)[C@@H]1C(=O)C(C(N)=O)=C(O)[C@@]2(O)C(=O)C3=C(O)c4c(O)ccc(-c5ccoc5)c4C[C@H]3C[C@@H]12	494 (vancomycin-resistant)	MIC	1 µg/mL
O=C(/C=C/c1ccccc1)NC[C@H]1CN(c2ccc(N3CCOCC3)c(F)c2)C(=O)O1	UC12712 (vancomycin-resistant)	MIC	8 µg/mL
CC(=O)NC[C@H]1CN(c2ccc(NC(=O)CO)c(F)c2)C(=O)O1	UC12712 (vancomycin-resistant)	MIC	16 µg/mL
O=C(CSc1ccccc1)NC[C@H]1CN(c2ccc(N3CCOCC3)c(F)c2)C(=O)O1	UC12712 (vancomycin-resistant)	MIC	32 µg/mL
CC(=O)NC[C@H]1CN(c2ccc(Sc3sccc3[N+](=O)[O-])c(F)c2)C(=O)O1	UC12712 (vancomycin-resistant)	MIC	4 µg/mL
CN(C)c1cc(NC(=O)CNC(C)(C)C)c(O)c2c1C[C@H]1C[C@H]3[C@H](N(C)C)C(=O)C(C(N)=O)=C(O)[C@@]3(O)C(=O)C1=C2O	20 strains (vancomycin-susceptible)	MIC50	0.12 µg/mL
O=C(Cc1cccc(Br)c1)NC[C@H]1CN(c2ccc(N3CCOCC3)c(F)c2)C(=O)O1	UC12712 (vancomycin-resistant)	MIC	16 µg/mL
CN(C)[C@@H]1C(=O)C(C(N)=O)=C(O)[C@@]2(O)C(=O)C3=C(O)c4c(O)ccc(-c5ccc6c(c5)OCO6)c4C[C@H]3C[C@@H]12	494 (vancomycin-resistant)	MIC	0.5 µg/mL

a–b is a range or a potency band. MIC50, MIC90 and the like: level of inhibition, or share of isolates inhibited. Neighbouring rows are from separate reports.